In the supplement of paper PMC12669032:
Only a part is listed here, and it is no random draw.

Columns and labels:
Assay in all cases: growth AUC relative to DMSO control (median of replicates) (fraction); higher = more growth (less inhibition), active = hit call of the paper
Settings in all cases: 20 µM; 24 h;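 active = AUC reduced over 20% with Padj below 0.05 in at least 2 of 3 replicates; inactive = otherwise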
Akkermansia muciniphila = system: Akkermansia muciniphila
In short: (§1)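 Gut bacterial monocultures in mGAM were treated with 20 µM compound (1% DMSO) and grown anaerobically at 37 °C in round-bottom 96-well plates from OD600 0.05. OD600 was read hourly for 24 h, with the minimum OD set to 0. Area under the growth curve was normalised to the plate median of solvent-only wells, or to row and column medians on the industrial chemical plate. Each value is the median of three biological replicates, each grown on a separate day.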

Bacteroides caccae = system: Bacteroides caccae
In short: as §1

Bacteroides clarus = system: Bacteroides clarus
In short: as §1

Bacteroides dorei = system: Bacteroides dorei
In short: as §1

Bacteroides stercoris = system: Bacteroides stercoris
In short: as §1

[1] = system: Bacteroides thetaiotaomicron
In short: as §1

Bacteroides uniformis = system: Bacteroides uniformis
In short: as §1

[2] = system: Bifidobacterium longum subsp. longum
In short: as §1

Clostridium difficile = system: Clostridium difficile
In short: as §1

Collinsella aerofaciens = system: Collinsella aerofaciens
In short: as §1

Coprococcus comes = system: Coprococcus comes
In short: as §1

Escherichia coli ED1a = system: Escherichia coli ED1a
In short: as §1

Escherichia coli IAI1 = system: Escherichia coli IAI1
In short: as §1

Eubacterium rectale = system: Eubacterium rectale
In short: as §1

[3] = system: Fusobacterium nucleatum subsp. animalis
In short: as §1

Lactobacillus gasseri = system: Lactobacillus gasseri
In short: as §1

Lactobacillus paracasei = system: Lactobacillus paracasei
In short: as §1

Odoribacter splanchnicus = system: Odoribacter splanchnicus
In short: as §1

[4] = system: Parabacteroides distasonis
In short: as §1

Parabacteroides merdae = system: Parabacteroides merdae
In short: as §1

Roseburia intestinalis = system: Roseburia intestinalis
In short: as §1

Streptococcus salivarius = system: Streptococcus salivarius
In short: as §1

Measured: growth AUC

O=C1C2CC=CCC2C(=O)N1SC(Cl)(Cl)C(Cl)Cl (centres undefined)
inactive: Akkermansia muciniphila 0.918 | Bacteroides caccae 1.02 | Bacteroides clarus 0.992 | Bacteroides dorei 0.989 | Bacteroides stercoris 0.972 | [1] 1.04 | Bacteroides uniformis 1 | [2] 0.95 | Clostridium difficile 1.03 | Collinsella aerofaciens 0.974 | Coprococcus comes 1.01 | Escherichia coli ED1a 1.02 | Escherichia coli IAI1 = 1.03 | Eubacterium rectale 0.955 | [3] 0.889 | Lactobacillus gasseri 1.14 | Lactobacillus paracasei 0.989 | Odoribacter splanchnicus 1 | [4] 0.989 | Parabacteroides merdae 0.989 | Roseburia intestinalis 1.01 | Streptococcus salivarius 0.979

CCCCOP(=O)(OCCCC)OCCCC
inactive: Akkermansia muciniphila 1.13 | Bacteroides caccae 1 | Bacteroides clarus 1.04 | Bacteroides dorei 1 | Bacteroides stercoris 1.14 | [1] 1.03 | Bacteroides uniformis 1.02 | [2] 0.958 | Clostridium difficile 1 | Collinsella aerofaciens 1.01 | Coprococcus comes 1 | Escherichia coli ED1a 1.01 | Escherichia coli IAI1 = 0.992 | Eubacterium rectale 1.08 | [3] 1.02 | Lactobacillus gasseri 0.99 | Lactobacillus paracasei 1 | Odoribacter splanchnicus 1.07 | [4] 0.955 | Parabacteroides merdae 1.03 | Roseburia intestinalis 0.943 | Streptococcus salivarius 0.987
